Earlier results on one substance are cited in article PMC10409496.

For this data set, the target named is neuropilin-1 (Homo sapiens) (UniProt O14786).

The term Kd denotes the constant that tells how readily two partners part at equilibrium. With SARS-CoV-2 spike (from UniProt P0DTC2), the Kd was 15 µM.
